Target: Synthetic beta-amyloid peptide 1-40 (Homo sapiens, UniProt P05067)
Test: Seprion assay screen for compounds that affect amyloid aggregation
Type: biochemical

Chains of the proteins cited; added tags and fusions are not shown. Residues count along the entry.
UniProt P05067, 672-711: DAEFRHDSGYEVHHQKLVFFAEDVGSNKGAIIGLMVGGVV

OCCN1CCN(CCCN2c3ccccc3Sc3ccc(C(F)(F)F)cc32)CC1 [Fluphenazine, fluphenazine]
Relative aggregation compared to 'no compound' aggregation control: 4.37%

Reference: US8383617B2, “Treatment of protein aggregation diseases” (priority 2007, dated 2013)
